Anti-infective test results gathered from many reports (values: NIAID ChemDB through PubChem).

All rows: enzyme or target tests; organism: HIV-2; target: Reverse transcriptase; endpoint: IC50

Blank or dashed fields: not listed here.

compound | strain | changes | read by | value
O=C(CCCCC(=O)Nc1ccccc1C(=O)O)Nc1ccc(Br)cc1 |  |  |  | >100 µg/mL
CC(C)=CCC/C(C)=C/CC/C(C)=C/CC/C(C)=C/CC/C(C)=C/CC/C(C)=C/Cc1cc(O)ccc1O |  |  | nucleotide incorporation | 1.5 µM
O=[N+]([O-])c1ccccc1S(=O)(=O)c1ccccc1 |  |  |  | 9.5 µM
Cc1ccc(C)c(C(Cl)S(=O)(=O)c2cc(C)cc[n+]2[O-])c1 |  |  | nucleotide incorporation / radiometric | >500 µg/mL
Nc1nc2c(ncn2[C@H]2CC[C@@H](COP(=O)(O)OP(=O)(O)OP(=O)(O)O)O2)c(=O)[nH]1 | ROD |  | nucleotide incorporation | >5 µM
CCN1C(=O)C=CC1=O |  |  | nucleotide incorporation | 750 µM
O=S(=O)(Cc1ccccc1I)c1cccc[n+]1[O-] |  |  | nucleotide incorporation / radiometric | >500 µg/mL
Cc1cccc(CS(=O)(=O)c2cccc[n+]2[O-])c1 |  |  | nucleotide incorporation / radiometric | >500 µg/mL
CC(C)=CCN1Cc2cccc3[nH]c(=S)n(c23)C[C@@H]1C | ROD | RT-D194 | radiometric | >500 µM
Cc1ccc(C)c(CSc2c(Cl)ccc[n+]2[O-])c1 |  |  | nucleotide incorporation / radiometric | >500 µg/mL
CN(CC(=O)Nc1ccc(Br)cc1C(=O)O)CC(=O)Nc1ccc(Br)cc1C(=O)O |  |  |  | >100 µg/mL
Cc1cc(C)c(CS(=O)c2cccc[n+]2[O-])c(C)c1 |  |  | nucleotide incorporation / radiometric | >500 µg/mL
O=C(CCCCC(=O)Nc1ccc(Br)cc1C(=O)O)Nc1ccccc1 |  |  |  | >100 µg/mL
CCOCn1c(Sc2ccccc2)c(CC)c(=O)[nH]c1=O |  |  |  | >500 µM
Cc1ccc(C)c(CS(=O)c2ccc(Cl)c[n+]2[O-])c1 |  |  | nucleotide incorporation / radiometric | >500 µg/mL

A second listing of 2 rows from above:

compound | strain | changes | read by | value
O=C(CCCCC(=O)Nc1ccc(Br)cc1C(=O)O)Nc1ccccc1 |  |  |  | >100 µg/mL
CCOCn1c(Sc2ccccc2)c(CC)c(=O)[nH]c1=O |  |  |  | >500 µM

ICn: concentration for n% inhibition. Conditions beyond the fields shown may differ between rows.